Anti-infective test results gathered from many reports (values: NIAID ChemDB through PubChem).

Shared fields: growth or infection tests; agent: HIV-1; method: luminescence; read-out: EC50

An empty or dashed field is not shown. Lines come from different laboratories, so protocols vary. ECn is the concentration giving n% inhibition of infection, replication or growth.

{"structure": "CCc1ccccc1-n1nc(-c2ccc(C)[nH]c2=O)cc1-c1ccccc1", "cell line": "TZM-bl", "strain": "VB59", "value": ">28.17 µM"}
{"structure": "COc1ccc(/C=C/c2cc(Cl)c3ccccc3n2)cc1", "cell line": "TZM-bl", "strain": "UG070", "value": "18.62 µM"}
{"structure": "Cc1ccc(-c2cc(-c3ccccc3)n(-c3ccc(Cl)cc3)n2)c(=O)[nH]1", "cell line": "TZM-bl", "strain": "VB59", "value": "137 µM"}
{"structure": "CC1(C)CC=C(c2cn(-c3nccc(C(=O)NC4CCC(N5CC6CCC(C5)O6)CC4)n3)c3ccc(F)c([C@H](OC(C)(C)C)C(=O)O)c23)CC1", "mutations": "Q148H", "cell line": "MT-4", "strain": "NL4-3", "value": "0.0039 µM"}
{"structure": "Cc1ccc(-c2cc(-c3ccccc3)n(-c3ccc(Br)cc3)n2)c(=O)[nH]1", "cell line": "TZM-bl", "strain": "UG070", "value": "45.17 µM"}
{"structure": "Clc1ccc2nc(/C=C/c3ccc(N4CCCC4)cc3)cc(Cl)c2c1", "cell line": "TZM-bl", "strain": "UG070", "value": "44.68 µM"}
{"structure": "Cc1ncc(-c2ccc(N(C)CCOc3cc(F)cc(F)c3)nc2)c(N2CCC(C)(C)CC2)c1[C@H](OC(C)(C)C)C(=O)O", "cell line": "MT-2", "strain": "NL4-3", "value": "0.0032 µM"}
{"structure": "COc1cc2c(cc1Cc1cccc(Cl)c1F)c(=O)c(C(=O)O)cn2[C@H](CO)C(C)C", "cell line": "MT-4", "strain": "NL4-3", "value": "0.002 µM"}
{"structure": "O=[N+]([O-])c1ccccc1/C=C/c1cc(Cl)c2cc(Cl)ccc2n1", "cell line": "TZM-bl", "strain": "UG070", "value": "52.16 µM"}
{"structure": "Cc1ccc(-c2cc(-c3ccccc3)n(-c3ccccc3C)n2)c(=O)[nH]1", "cell line": "TZM-bl", "strain": "VB59", "value": ">147 µM"}
{"structure": "Cc1ncc(-c2ccc(OCC3CCCCCC3)cn2)c(N2CCC(C)(C)CC2)c1[C@H](OC(C)(C)C)C(=O)O", "cell line": "MT-2", "strain": "NL4-3", "value": "0.0023 µM"}
{"structure": "Cc1nc2ccccc2c(-c2cc(F)c3c(c2C)CCCO3)c1[C@H](OC(C)(C)C)C(=O)O", "mutations": "A129T", "cell line": "MT-4", "strain": "NL4-3", "value": "5.74 µM"}
{"structure": "Cc1ncc(-c2ccc(OCC3(C)CCC3)nc2)c(N2CCC(C)(C)CC2)c1[C@H](OC(C)(C)C)C(=O)O", "cell line": "MT-2", "strain": "NL4-3", "value": "0.0059 µM"}
{"structure": "COc1ccc(-n2nc(-c3ccc(C)[nH]c3=O)cc2-c2ccccc2)cc1", "cell line": "TZM-bl", "strain": "VB59", "value": "114 µM"}
{"structure": "Cc1ncc(-c2ccc(OCCn3ccccc3=O)cn2)c(N2CCC(C)(C)CC2)c1[C@H](OC(C)(C)C)C(=O)O", "cell line": "MT-2", "strain": "NL4-3", "value": "0.0808 µM"}
{"structure": "COc1cc(/C=C/c2cc(Cl)c3ccccc3n2)cc(OC)c1OC", "cell line": "TZM-bl", "strain": "UG070", "value": "108 µM"}
{"structure": "Cc1ncc(-c2ccc(OCCOc3cccnc3)cn2)c(N2CCC(C)(C)CC2)c1[C@H](OC(C)(C)C)C(=O)O", "cell line": "MT-2", "strain": "NL4-3", "value": "0.0049 µM"}
{"structure": "Cc1nnc(-c2cccc(-c3cccc(C(=O)N4CCCCC4)c3)c2)o1", "setting": "pseudotyped", "cell line": "TZM-bl", "value": ">30 µM"}
{"structure": "Cc1ncc(-c2ccc(OCCN3CCOCC3)cn2)c(N2CCC(C)(C)CC2)c1[C@H](OC(C)(C)C)C(=O)O", "cell line": "MT-2", "strain": "NL4-3", "value": "0.0245 µM"}
{"structure": "Cc1ccc(-c2cc(-c3ccccc3)n(-c3ccc(C(C)C)cc3)n2)c(=O)[nH]1", "cell line": "TZM-bl", "strain": "UG070", "value": "18.21 µM"}
{"structure": "Cc1ncc(-c2ccc(OCCC(C)F)cn2)c(N2CCC(C)(C)CC2)c1[C@H](OC(C)(C)C)C(=O)O", "cell line": "MT-2", "strain": "NL4-3", "value": "0.0019 µM"}
{"structure": "Clc1cc(/C=C/c2cc3ccccc3o2)nc2ccccc12", "cell line": "TZM-bl", "strain": "UG070", "value": "93.21 µM"}

A second listing of 2 rows from above:

structure | mutations | setting | cell line | strain | value
Cc1nc2ccccc2c(-c2cc(F)c3c(c2C)CCCO3)c1[C@H](OC(C)(C)C)C(=O)O | A129T |  | MT-4 | NL4-3 | 5.74 µM
Cc1ccc(-c2cc(-c3ccccc3)n(-c3ccc(C(C)C)cc3)n2)c(=O)[nH]1 |  |  | TZM-bl | UG070 | 18.21 µM